# Data from PubChem BioAssay AID504690 (Sanford-Burnham Center for Chemical Genomics, 2011).
# The entries are a selection whose mix differs from that of the whole data set. Calls of active or inactive are those of the source.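 The calls were made as follows: active = inhibition reaching at least a set limit at 20 µM in the primary screen (cut at about 59% in these data); inactive = the rest.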
# Test system: glucose-6-phosphate dehydrogenase-6-phosphogluconolactonase (Plasmodium falciparum 3D7)
# Assay: inhibition of malaria parasite G6PD (PfGluPho) – biochemical, fluorescence intensity, uHTS, primary screen (AID 504690);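 also: 0% = DMSO wells with substrate and 100% = DMSO wells lacking glucose-6-phosphate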
# Conditions: PfGluPho enzyme, NADPH resazurin-diaphorase fluorescence; at 20 µM; active compounds read high
row,SMILES,inhibition
1,Cc1ccc(NP(=O)(Oc2cccc(C)c2)Oc2cccc(C)c2)nc1,inactive: -1.82%
2,CCNC(=S)/N=C(\N)N[N+](=O)[O-],inactive: -0.74%
3,O=C(NC1CCS(=O)(=O)C1)NP(=S)(Oc1ccccc1)Oc1ccccc1 (stereo unspecified),inactive: 8.97%
4,O=P1(N(CCCl)CCCl)OCCC2CCCCN21 (stereo unspecified),inactive: -10.4%
5,O=C(OC1CN2CCC1CC2)c1ccccc1 (stereo unspecified),inactive: -12%
6,CCC(=O)N1C2C3N(C(=O)CC)C1C1N(C(=O)CC)C(C(N1C(=O)CC)N3C(=O)CC)N2C(=O)CC,inactive: 0.31%
7,COC(=O)c1cc2c(s1)N=C(c1ccccc1)N(C)P2(=O)N1CCOCC1 (stereo unspecified),inactive: -9.06%
8,Cc1ccc(OP(=O)(Nc2ccccn2)Oc2ccc(C)cc2)cc1,inactive: -1.51%
9,CC(=O)NC(SC(=S)N(CC(C)C)CC(C)C)C(Cl)(Cl)Cl (stereo unspecified),inactive: 5.41%
10,Cc1ccccc1OP(=O)(Nc1ccccn1)Oc1ccccc1C,inactive: 6.91%
11,CC(NC(=O)COC(=O)C(O)(c1ccccc1)c1ccccc1)c1ccccc1 (stereo unspecified),inactive: 5.77%
12,CN(C)C(=O)Oc1noc2ccccc12,inactive: 8.97%
13,O=c1c2cc([N+](=O)[O-])ccc2[nH]c2c([N+](=O)[O-])cc([N+](=O)[O-])cc12,inactive: 30.1%
14,O=P(Nc1ccccn1)(c1ccc(Br)cc1)c1ccc(Br)cc1,inactive: -22.4%
15,CN(C)C1(CNC(=O)c2ccc(Cl)c(S(N)(=O)=O)c2)CCCCC1,inactive: -1.91%
16,COc1ccc(N)c([N+](=O)[O-])c1[N+](=O)[O-],inactive: 18.7%
17,O=P(Nc1nc2ccccc2s1)(c1ccccc1)c1ccccc1,inactive: -1.16%
18,C[C@H]1OP(=O)(Oc2ccccc2)[C@H](O)[C@H](O)[C@H]1N=[N+]=[N-] (stereo partly specified),inactive: 1.32%
19,O=[As](O)(c1ccccc1)c1ccc(O)cc1,inactive: -9.19%
20,O=[N+]([O-])c1ccc(O)c(/C=N/Nc2ccc([N+](=O)[O-])cc2[N+](=O)[O-])c1,inactive: -2.6%
21,O=[N+]([O-])c1ncn(CCn2cnc([N+](=O)[O-])n2)n1,inactive: -0.13%
22,CC(=O)NC(SC(=S)N(C)C)C(Cl)(Cl)Cl (stereo unspecified),inactive: -2.89%
23,O=C(OC1CN2CCC1CC2)c1cccc(Cl)c1 (stereo unspecified),inactive: -4.48%
24,Nc1ccc([As](=O)(O)c2ccc([N+](=O)[O-])cc2)cc1,inactive: -0.08%

row,SMILES,inhibition
1,C(Cc1nn[nH]n1)Cc1nn[nH]n1,inactive: -3.61%
2,CC(C)C(=O)NC(Sc1ccccc1)C(Cl)(Cl)Cl (stereo unspecified),inactive: -20.9%
3,O=P(Nc1nccs1)(c1ccccc1)c1ccccc1,inactive: 2.83%
4,c1nnnn1CCn1cnnn1,inactive: -1.3%
5,COc1ccc(C2=NCC(CBr)S2)cc1 (stereo unspecified),inactive: 51%
6,Cc1ccc(NP(=O)(Oc2ccccc2)Oc2ccccc2)nc1,inactive: 3.41%
7,CCc1nc2c(n1)c1c(non1O)c1c2no[n+]1[O-],inactive: -8.69%
8,O=[N+]([O-])c1cc([N+](=O)[O-])c(CCNc2ccccc2)c([N+](=O)[O-])c1,inactive: 36.8%
9,O=[N+]([O-])c1cccc2n[nH]nc12,inactive: -8.27%
10,CC(=O)N1C2C3N(C(C)=O)C1C1N(C(C)=O)C(C(N1C(C)=O)N3C(C)=O)N2C(C)=O,inactive: 1.52%
11,CCN(/C(=N/P(=O)(N1CCOCC1)N1CCOCC1)N1CCOCC1)c1ccc(OC)cc1,inactive: -6.94%
12,Nc1ccc([As](=O)(O)c2ccc(N)cc2)cc1,inactive: 4.51%
13,C[N+]1=C2C=CC=CC=C2SC12C([N+](=O)[O-])=CC([N+](=O)[O-])=C[C-]2[N+](=O)[O-] (stereo unspecified),active: 67.4%
14,c1cc(-c2nn[nH]n2)ccc1-c1nn[nH]n1,inactive: -51.2%
15,CC1CCN(C(=O)Oc2c(Cl)cc(Cl)c3cccnc23)CC1,inactive: 0.01%
16,CC(C)=N/N=C(\N)N[N+](=O)[O-],inactive: 6.7%
17,CC(C)c1nc(Nc2ccccc2)n(P(=O)(N(C)C)N(C)C)n1,inactive: -15.5%
18,CN(C)C(=O)OCCc1n(C)cc[n+]1C,inactive: -1.08%
19,O=P1(N(CCCl)CCCl)OCCCS1 (stereo unspecified),inactive: 1.7%
20,O=C(Nc1cc([As](=O)(O)O)ccc1O)c1ccccc1,inactive: -11%
21,O=[N+]([O-])c1ncn(CCn2ncnc2[N+](=O)[O-])n1,inactive: 5.28%
22,CC(C)(C)C(=O)NC(Sc1ccncn1)C(Cl)(Cl)Cl (stereo unspecified),inactive: 8.21%
23,O=C(O)CNc1ccc([As](=O)(O)O)cc1,inactive: -3.82%
24,O=[N+]([O-])c1cccc(NC2=NCC(CBr)S2)c1 (stereo unspecified),inactive: 7.8%

row,SMILES,inhibition
1,COC(=O)C1(C)COP(=O)(Nc2ccccc2)OC1 (stereo unspecified),inactive: -3.64%
2,CN(C)P(=O)(N(C)C)n1c(Nc2ccccc2)nnc1-c1ccccc1,inactive: 19.4%
3,O=P(Nc1nc2ccc(Cl)cc2s1)(c1ccccc1)c1ccccc1,inactive: -10.6%
4,O=C(O)c1ccccc1[As](=O)(O)O,inactive: -16.9%
5,CC(=O)Nc1ccc([As](=O)(O)O)cc1,inactive: -12.5%
6,CCCC1OP(N)(=O)OCC1CC (stereo unspecified),inactive: -20.2%
7,CCOP(=O)(Nc1ccccc1)OCC,inactive: -20.9%
8,Cc1cc(SC(NC(=O)c2ccc(F)cc2)C(Cl)(Cl)Cl)ncn1 (stereo unspecified),inactive: 31%
9,Cc1ccc(NP(=O)(Oc2ccccc2F)Oc2ccccc2F)nc1,inactive: 6.23%
10,CN(C(=O)Cc1ccc(Cl)c(Cl)c1)[C@H]1CCCC[C@@H]1N1CCCC1,inactive: 8.52%
11,Nc1cccc2ccc([As](=O)(O)O)cc12,inactive: 17.5%
12,CCN(N=Nc1nonc1N)c1nonc1N,inactive: -8.56%
13,CN(C(=O)Cc1ccc(Cl)c(Cl)c1)[C@H]1CCCC[C@H]1N1CCCC1,inactive: -5%
14,Cc1ccc(N/C(=N/P(=O)(N2CCOCC2)N2CCOCC2)N2CCOCC2)cc1,inactive: -20.2%
15,NC(=O)c1cc([N+](=O)[O-])cc([N+](=O)[O-])c1N,inactive: 13.1%
16,Clc1ccc(Cl)c(NC2=NCC(CBr)S2)c1 (stereo unspecified),inactive: 18.5%
17,CN1CCCC(OC(=O)C(c2ccccc2)c2ccccc2)C1 (stereo unspecified),inactive: -5.67%
18,COc1ccccc1OP(=O)(Nc1ccc(C)cn1)Oc1ccccc1OC,inactive: 1.43%
19,Cc1ccc(OP(=O)(Nc2nccs2)Oc2ccc(C)cc2)cc1,inactive: 3.8%
20,Oc1ccccc1CNc1ccccn1,inactive: -16.4%
21,O=C(NC(Sc1ccncn1)C(Cl)(Cl)Cl)c1ccccc1 (stereo unspecified),inactive: 7.24%
22,CC(C)CC(=O)NC(Sc1ccc(Cl)cc1)C(Cl)(Cl)Cl (stereo unspecified),inactive: 7.95%
23,Nc1cc(N)c2nonc2c1[N+](=O)[O-],inactive: 8.18%
